In ChEMBL document CHEMBL1122213, “Synthesis and study of a spin-labeled cyclophosphamide analogue, 3-(1-oxy-2,2,6,6-tetramethyl-4-piperidinyl)cyclophosphamide” (J Med Chem, 1982) one finds T1/2 data, which are given here for one compound.

Structures are written as SMILES.

The series can be described thus: Half life was determined. Format: ADME. As to conditions: rat.

In turn, `NP(=O)(O)N(CCCl)CCCl` registered a T1/2 of 18 min.
